Results as given in patent publication US10874745B2, “Antimicrobial peptides and methods of treating gram-negative pathogens: polar and non-polar face analogs” (priority 2017, dated 2020).
Values joined by “and” are separate entries in the source; they are usually repeats but may differ in a detail not shown here. Equal values may be shown once. Non-standard residues stand in square brackets, D forms with d. Residues, ends and D or L forms follow the SMILES beside them. *: point of attachment. MeO(CH2CH2O)23CH2CH2CO = COCCOCCOCCOCCOCCOCCOCCOCCOCCOCCOCCOCCOCCOCCOCCOCCOCCOCCOCCOCCOCCOCCOCCOCCC(=O)*; dDab = NCC[C@@H](N)C(=O)O; dDap = NC[C@@H](N)C(=O)O

These compounds were tested on A. baumannii strains resistant to Polymyxin B and Colistin. Settings: MICGM of 7 A. baumannii strains resistant to polymyxin B and colistin.
Type: cell-based

Compound | TI, therapeutic index HC50/MICGM
CC(=O)N[C@H](C)C(=O)N[C@H](CC(C)C)C(=O)N[C@H](CCCCN)C(=O)N[C@H](CCCCN)C(=O)N[C@H](CC(C)C)C(=O)N[C@H](CC(C)C)C(=O)N[C@H](CCCCN)C(=O)N[C@@H](C(=O)N[C@H](CC(C)C)C(=O)N[C@H](CO)C(=O)N[C@H](CCCCN)C(=O)N[C@H](C)C(=O)N[C@H](CCCCN)C(=O)N[C@H](C)C(=O)N[C@H](C)C(=O)N[C@H](CCCCN)C(=O)N[C@H](CC(C)C)C(=O)N[C@H](CCCCN)C(=O)N[C@@H](C(=O)N[C@H](CC(C)C)C(=O)N[C@H](CC(C)C)C(=O)N[C@H](CCCCN)C(=O)N[C@H](C)C(=O)N[C@H](CC(C)C)C(=O)N[C@H](CO)C(=O)N[C@H](CCCCN)C(N)=O)[C@H](C)O)[C@H](C)O [D41(Lys13/Lys16)] | 34.3
CC(=O)N[C@H](CCCCN)C(=O)N[C@H](CC(C)C)C(=O)N[C@H](CCCCN)C(=O)N[C@H](CO)C(=O)N[C@H](CC(C)C)C(=O)N[C@H](CC(C)C)C(=O)N[C@H](CCCCN)C(=O)N[C@@H](C(=O)N[C@H](CC(C)C)C(=O)N[C@H](CO)C(=O)N[C@H](CCCCN)C(=O)N[C@H](C)C(=O)N[C@H](CCCCN)C(=O)N[C@H](C)C(=O)N[C@H](C)C(=O)N[C@H](CCCCN)C(=O)N[C@H](CC(C)C)C(=O)N[C@H](CCCCN)C(=O)N[C@@H](C(=O)N[C@H](CC(C)C)C(=O)N[C@H](CC(C)C)C(=O)N[C@H](CCCCN)C(=O)N[C@H](C)C(=O)N[C@H](CC(C)C)C(=O)N[C@H](CO)C(=O)N[C@H](CCCCN)C(N)=O)[C@H](C)O)[C@H](C)O [Peptide D84, Ac-KL(Lys)SLL(Lys)TLS(Lys)AKAAKL(Lys)TLL(Lys)ALS(Lys)-amide] | 108.6
CC(=O)N[C@H](CCCCN)C(=O)N[C@H](CC(C)C)C(=O)N[C@H](CCCN)C(=O)N[C@H](CO)C(=O)N[C@H](CC(C)C)C(=O)N[C@H](CC(C)C)C(=O)N[C@H](CCCN)C(=O)N[C@@H](C(=O)N[C@H](CC(C)C)C(=O)N[C@H](CO)C(=O)N[C@H](CCCN)C(=O)N[C@H](C)C(=O)N[C@H](CCCCN)C(=O)N[C@H](C)C(=O)N[C@H](C)C(=O)N[C@H](CCCCN)C(=O)N[C@H](CC(C)C)C(=O)N[C@H](CCCN)C(=O)N[C@@H](C(=O)N[C@H](CC(C)C)C(=O)N[C@H](CC(C)C)C(=O)N[C@H](CCCN)C(=O)N[C@H](C)C(=O)N[C@H](CC(C)C)C(=O)N[C@H](CO)C(=O)N[C@H](CCCN)C(N)=O)[C@H](C)O)[C@H](C)O [Peptide D85, Ac-KL(Orn)SLL(Orn)TLS(Orn)AKAAKL(Orn)TLL(Orn)ALS(Orn)-amide] | 292.2
CC(=O)N[C@H](CCCCN)C(=O)N[C@H](CC(C)C)C(=O)N[C@H](CCN)C(=O)N[C@H](CO)C(=O)N[C@H](CC(C)C)C(=O)N[C@H](CC(C)C)C(=O)N[C@H](CCN)C(=O)N[C@@H](C(=O)N[C@H](CC(C)C)C(=O)N[C@H](CO)C(=O)N[C@H](CCN)C(=O)N[C@H](C)C(=O)N[C@H](CCCCN)C(=O)N[C@H](C)C(=O)N[C@H](C)C(=O)N[C@H](CCCCN)C(=O)N[C@H](CC(C)C)C(=O)N[C@H](CCN)C(=O)N[C@@H](C(=O)N[C@H](CC(C)C)C(=O)N[C@H](CC(C)C)C(=O)N[C@H](CCN)C(=O)N[C@H](C)C(=O)N[C@H](CC(C)C)C(=O)N[C@H](CO)C(=O)N[C@H](CCN)C(N)=O)[C@H](C)O)[C@H](C)O [Peptide D86, Ac-KL(Dbu)SLL(Dbu)TLS(Dbu)AKAAKL(Dbu)TLL(Dbu)ALS(Dbu)-amide] (Ac-[dK][dL][dDab][dS][dL][dL][dDab][dT][dL][dS][dDab][dA][dK][dA][dA][dK][dL][dDab][dT][dL][dL][dDab][dA][dL][dS][dDab]-NH2) | > 742 and >741.5
COCCOCCOCCOCCOCCOCCOCCOCCOCCOCCOCCOCCOCCOCCOCCOCCOCCOCCOCCOCCOCCOCCOCCOCCC(=O)N[C@H](CCCCN)C(=O)N[C@H](CC(C)C)C(=O)N[C@H](CCN)C(=O)N[C@H](CO)C(=O)N[C@H](CC(C)C)C(=O)N[C@H](CC(C)C)C(=O)N[C@H](CCN)C(=O)N[C@@H](C(=O)N[C@H](CC(C)C)C(=O)N[C@H](CO)C(=O)N[C@H](CCN)C(=O)N[C@H](C)C(=O)N[C@H](CCCCN)C(=O)N[C@H](C)C(=O)N[C@H](C)C(=O)N[C@H](CCCCN)C(=O)N[C@H](CC(C)C)C(=O)N[C@H](CCN)C(=O)N[C@@H](C(=O)N[C@H](CC(C)C)C(=O)N[C@H](CC(C)C)C(=O)N[C@H](CCN)C(=O)N[C@H](C)C(=O)N[C@H](CC(C)C)C(=O)N[C@H](CO)C(=O)N[C@H](CCN)C(N)=O)[C@H](C)O)[C@H](C)O [Peptide D86PEG1, m-dPEG24-D86] ({MeO(CH2CH2O)23CH2CH2CO}-[dK][dL][dDab][dS][dL][dL][dDab][dT][dL][dS][dDab][dA][dK][dA][dA][dK][dL][dDab][dT][dL][dL][dDab][dA][dL][dS][dDab]-NH2) | 48.8
CC(=O)N[C@H](CCCCN)C(=O)N[C@H](CC(C)C)C(=O)N[C@H](CCCCN)C(=O)N[C@H](CO)C(=O)N[C@H](CC(C)C)C(=O)N[C@H](CC(C)C)C(=O)N[C@H](CCCCN)C(=O)N[C@@H](C(=O)N[C@H](CC(C)C)C(=O)N[C@H](CO)C(=O)N[C@H](C)C(=O)N[C@H](C)C(=O)N[C@H](CCCCN)C(=O)N[C@H](CCCCN)C(=O)N[C@H](CCCCN)C(=O)N[C@H](CCCCN)C(=O)N[C@H](CC(C)C)C(=O)N[C@H](C)C(=O)N[C@@H](C(=O)N[C@H](CC(C)C)C(=O)N[C@H](CC(C)C)C(=O)N[C@H](CCCCN)C(=O)N[C@H](C)C(=O)N[C@H](CC(C)C)C(=O)N[C@H](CO)C(=O)N[C@H](CCCCN)C(N)=O)[C@H](C)O)[C@H](C)O [Peptide D88, Ac-KL(Lys)SLL(Lys)TLSAAK(Lys)(Lys)KLATLL(Lys)ALS(Lys)-amide] (Ac-[dK][dL][dK][dS][dL][dL][dK][dT][dL][dS][dA][dA][dK][dK][dK][dK][dL][dA][dT][dL][dL][dK][dA][dL][dS][dK]-NH2) | 201.5
CC(=O)N[C@H](CCCCN)C(=O)N[C@H](CC(C)C)C(=O)N[C@H](CCN)C(=O)N[C@H](CO)C(=O)N[C@H](CC(C)C)C(=O)N[C@H](CC(C)C)C(=O)N[C@H](CCN)C(=O)N[C@@H](C(=O)N[C@H](CC(C)C)C(=O)N[C@H](CO)C(=O)N[C@H](C)C(=O)N[C@H](C)C(=O)N[C@H](CCCCN)C(=O)N[C@H](CCN)C(=O)N[C@H](CCN)C(=O)N[C@H](CCCCN)C(=O)N[C@H](CC(C)C)C(=O)N[C@H](C)C(=O)N[C@@H](C(=O)N[C@H](CC(C)C)C(=O)N[C@H](CC(C)C)C(=O)N[C@H](CCN)C(=O)N[C@H](C)C(=O)N[C@H](CC(C)C)C(=O)N[C@H](CO)C(=O)N[C@H](CCN)C(N)=O)[C@H](C)O)[C@H](C)O [Peptide D89, Ac-KL(Dbu)SLL(Dbu)TLSAAK(Dbu)(Dbu)KLATLL(Dbu)ALS(Dbu)-amide] (Ac-[dK][dL][dDab][dS][dL][dL][dDab][dT][dL][dS][dA][dA][dK][dDab][dDab][dK][dL][dA][dT][dL][dL][dDab][dA][dL][dS][dDab]-NH2) | >1588.9
CC(=O)N[C@H](CCCCN)C(=O)N[C@H](CC(C)C)C(=O)N[C@H](CN)C(=O)N[C@H](CO)C(=O)N[C@H](CC(C)C)C(=O)N[C@H](CC(C)C)C(=O)N[C@H](CN)C(=O)N[C@@H](C(=O)N[C@H](CC(C)C)C(=O)N[C@H](CO)C(=O)N[C@H](CN)C(=O)N[C@H](C)C(=O)N[C@H](CCCCN)C(=O)N[C@H](C)C(=O)N[C@H](C)C(=O)N[C@H](CCCCN)C(=O)N[C@H](CC(C)C)C(=O)N[C@H](CN)C(=O)N[C@@H](C(=O)N[C@H](CC(C)C)C(=O)N[C@H](CC(C)C)C(=O)N[C@H](CN)C(=O)N[C@H](C)C(=O)N[C@H](CC(C)C)C(=O)N[C@H](CO)C(=O)N[C@H](CN)C(N)=O)[C@H](C)O)[C@H](C)O [Peptide D105, Ac-KL(Dpr)SLL(Dpr)TLS(Dpr)AKAAKL(Dpr)TLL(Dpr)ALS(Dpr)-amide] | > 957 and >956.7
CC(=O)N[C@H](CCCCN)C(=O)N[C@H](CC(C)C)C(=O)N[C@H](CN)C(=O)N[C@H](CO)C(=O)N[C@H](CC(C)C)C(=O)N[C@H](CC(C)C)C(=O)N[C@H](CN)C(=O)N[C@@H](C(=O)N[C@H](CC(C)C)C(=O)N[C@H](CO)C(=O)N[C@H](C)C(=O)N[C@H](C)C(=O)N[C@H](CCCCN)C(=O)N[C@H](CN)C(=O)N[C@H](CN)C(=O)N[C@H](CCCCN)C(=O)N[C@H](CC(C)C)C(=O)N[C@H](C)C(=O)N[C@@H](C(=O)N[C@H](CC(C)C)C(=O)N[C@H](CC(C)C)C(=O)N[C@H](CN)C(=O)N[C@H](C)C(=O)N[C@H](CC(C)C)C(=O)N[C@H](CO)C(=O)N[C@H](CN)C(N)=O)[C@H](C)O)[C@H](C)O [Peptide D106, Ac-KL(Dpr)SLL(Dpr)TLSAAK(Dpr)(Dpr)KLATLL(Dpr)ALs(Dpr)-amide] (Ac-[dK][dL][dDap][dS][dL][dL][dDap][dT][dL][dS][dA][dA][dK][dDap][dDap][dK][dL][dA][dT][dL][dL][dDap][dA][dL][dS][dDap]-NH2) | 425.3

Same assay, conditions: MICGM of 7 A. baumannii strains resistant to polymyxin B and colistin; listed as D89 (6 Dbu-2)

Compound | TI, therapeutic index HC50/MICGM
CC(=O)N[C@H](CCCCN)C(=O)N[C@H](CC(C)C)C(=O)N[C@H](CCN)C(=O)N[C@H](CO)C(=O)N[C@H](CC(C)C)C(=O)N[C@H](CC(C)C)C(=O)N[C@H](CCN)C(=O)N[C@@H](C(=O)N[C@H](CC(C)C)C(=O)N[C@H](CO)C(=O)N[C@H](C)C(=O)N[C@H](C)C(=O)N[C@H](CCCCN)C(=O)N[C@H](CCN)C(=O)N[C@H](CCN)C(=O)N[C@H](CCCCN)C(=O)N[C@H](CC(C)C)C(=O)N[C@H](C)C(=O)N[C@@H](C(=O)N[C@H](CC(C)C)C(=O)N[C@H](CC(C)C)C(=O)N[C@H](CCN)C(=O)N[C@H](C)C(=O)N[C@H](CC(C)C)C(=O)N[C@H](CO)C(=O)N[C@H](CCN)C(N)=O)[C@H](C)O)[C@H](C)O [Peptide D89, Ac-KL(Dbu)SLL(Dbu)TLSAAK(Dbu)(Dbu)KLATLL(Dbu)ALS(Dbu)-amide] (Ac-[dK][dL][dDab][dS][dL][dL][dDab][dT][dL][dS][dA][dA][dK][dDab][dDab][dK][dL][dA][dT][dL][dL][dDab][dA][dL][dS][dDab]-NH2) | >1589
